Results of unrelated studies side by side (data: NIAID ChemDB).

Common to all: tests in culture; organism: Plasmodium falciparum; method: LDH; endpoint: EC50

Neighbouring rows are from separate reports. ECn: concentration that inhibits the pathogen or its effect by n%. An empty or dashed field is not shown.

compound | strain | changes | result
CC1CC2CCCC3CC(CCc4cccc(Cl)c4)N=C(N1)N32 | W2 |  | 3.02 µM
CCOC(=O)c1ccc(-c2ccc([N+](=O)[O-])cc2)nc1C | D10 |  | 61 µM
NC(=S)N/N=C/c1ccccc1 | NF54 |  | >10 µg/mL
C[C@H]1[C@@H](O)O[C@@H]2OC3(C)CC[C@H]4[C@H](C)CC[C@@H]1[C@@]24OO3 | 3D7 |  | 0.006 µg/mL
Cc1cccc(CCC2CC3CCC4CC(C)NC(=N2)N34)c1 | D6 |  | 9.39 µM
COc1cc2c(cc1/C=C/C(=O)c1ccc(Cl)cc1Cl)C1CC[C@@]3(C)C(CC[C@@H]3OC(C)=O)C1CC2 | NF54 |  | 4.31 µM
c1ccc(CC[C@@H]2C[C@@H]3CCC[C@@H]4C[C@H](CCc5ccccc5)NC(=N2)N43)cc1 | W2 |  | 8.26 µM
CN1CCN(C(=O)n2cc(-c3ccnc(N)n3)c3cc(Br)ccc32)CC1 | W2 |  | >14.49 µM
Cc1cccc(CCC2CC3CCCC4CC(C)NC(=N2)N34)c1 | W2 |  | 7.71 µM
CC(C)=CC1CC([C@@H]2CC[C@]3(C)C4CC[C@H]5C(C)(C)[C@@H](O)CC[C@]5(C)[C@H]4CC[C@@]23C)CO1 | D10 |  | 128 µM
Cc1ccc(C(C)C)cc1.NC(=S)N/N=C/c1ccccc1.[Cl][Ru+] | NF54 |  | 10.7 µM
CCCC[C@@H]1C[C@@H]2CC[C@@H]3C[C@H](CCCC)NC(=N1)N32 | D6 |  | 6.49 µM
C=C(C)C1CC[C@]2(C(=O)O)CC[C@@]3(C)[C@]4(C)CC[C@H]5C(C)(C)[C@@H](OC(C)=O)CC[C@]5(C)[C@H]4CC[C@]3(C)[C@@H]12 | D10 |  | >200 µM
COc1cc2c(cc1/C=C/C(=O)c1cc(OC)c(OC)c(OC)c1)C1CC[C@@]3(C)C(CC[C@@H]3O)C1CC2 | NF54 |  | 2.07 µM
Clc1cccc(CC[C@H]2C[C@H]3CCC[C@H]4C[C@@H](CCc5cccc(Cl)c5)NC(=N2)N34)c1 | W2 |  | 1.64 µM
CCN(CC)CCCC(C)Nc1ccnc2cc(Cl)ccc12 | Dd2 | CQ-resistant | 0.378 µM
NCCCCNc1ccnc2cc(Cl)ccc12 | K1 |  | 2.74 µM
NC(=S)N/N=C/c1ccc(Cl)cc1 | Dd2 |  | 31.8 µM
O=c1[nH]c(-c2c[nH]c3ccc(I)cc23)nc2ccccc12 | D6 |  | >14.43 µM
CCCCC[C@@H]1C[C@@H]2CC[C@@H]3C[C@H](CCCCC)NC(=N1)N32 | W2 |  | 3.6 µM
COc1cc2c(cc1/C=C/C(=O)c1ccc(Cl)cc1)C1CC[C@@]3(C)C(CC[C@@H]3O)C1CC2 | NF54 |  | 160 µM

For reference, 3 entries again:

{"compound": "NC(=S)N/N=C/c1ccccc1", "strain": "NF54", "result": ">10 µg/mL"}
{"compound": "Cc1cccc(CCC2CC3CCCC4CC(C)NC(=N2)N34)c1", "strain": "W2", "result": "7.71 µM"}
{"compound": "NC(=S)N/N=C/c1ccc(Cl)cc1", "strain": "Dd2", "result": "31.8 µM"}